Data reported in patent US5225437A, “1,2,4-trioxane compounds having antimalarial activity” (The Johns Hopkins University, priority 1992, dated 1993).

Columns and labels:
[1] = tested on: P. falciparum malaria parasite clone Sierra Leone (D-6); experiment: in vitro susceptibility testing, uptake of tritiated hypoxanthine as index of inhibition of parasite growth, Sierra Leone (D-6) clone; conditions: for IC50: read-out: D6 IC50, Table IV; for IC90: read-out: D6 IC90, Table IV
[2] = tested on: P. falciparum malaria parasite clone Indochina (W-2); experiment: in vitro susceptibility testing, uptake of tritiated hypoxanthine as index of inhibition of parasite growth, Indochina (W-2) clone; assay type: cell-based; conditions: for IC50: read-out: W2 IC50, Table IV; for IC90: read-out: W2 IC90, Table IV

Row | Structure (SMILES) | IC50 [1] [nM] | IC90 [1] [nM] | IC50 [2] [nM] | IC90 [2] [nM]
1 | COC1OC2(C)CCC3CCCC(CCOP(=O)(Oc4ccccc4)Oc4ccccc4)C31OO2 (centres unmarked) | 0.52 | 5.01 | < 0.16 | < 0.16
2 | CCOP(=S)(OCC)OCCC1CCCC2CCC3(C)OOC12C(OC)O3 (centres unmarked) | 0.97 | 5.16 | 0.29 | 1.39
